Results taken from PMC12172621 (ACS chemical neuroscience, 2024).

Chains of the proteins cited; added tags and fusions are not shown.
UniProt Q5BJF2, whole entry, species assumed: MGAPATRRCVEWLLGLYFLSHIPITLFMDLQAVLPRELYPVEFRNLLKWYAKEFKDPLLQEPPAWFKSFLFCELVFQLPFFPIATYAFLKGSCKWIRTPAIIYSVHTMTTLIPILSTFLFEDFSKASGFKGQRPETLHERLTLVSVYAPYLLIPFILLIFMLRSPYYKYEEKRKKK

Biological target: sigma-2 receptor (σ2R, Tmem97) (Homo sapiens, UniProt Q5BJF2)
Format: binding
Conditions: read-out: Kiσ2R

Question: For `COc1cccc2c1CCCC2CCCN1CCN(C2CCCCC2)CC1` (stereo not shown) [PB-28], which Ki is on record?
Answer: 4 nM
